Source: paper PMC1208959 (Virology Journal, 2005)
Several values for one entry are separate records, joined by “and”; a condition that tells them apart may be missing. Equal values may be shown once.

By UniProt entry, the sequences of proteins in these tests, tags left out. Residues count along the entry.
UniProt O89342, 27-109 partner limits assumed: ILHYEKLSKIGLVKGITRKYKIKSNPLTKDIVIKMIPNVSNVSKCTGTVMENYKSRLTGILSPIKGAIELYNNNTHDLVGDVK
UniProt O89342, 110-546 limits assumed: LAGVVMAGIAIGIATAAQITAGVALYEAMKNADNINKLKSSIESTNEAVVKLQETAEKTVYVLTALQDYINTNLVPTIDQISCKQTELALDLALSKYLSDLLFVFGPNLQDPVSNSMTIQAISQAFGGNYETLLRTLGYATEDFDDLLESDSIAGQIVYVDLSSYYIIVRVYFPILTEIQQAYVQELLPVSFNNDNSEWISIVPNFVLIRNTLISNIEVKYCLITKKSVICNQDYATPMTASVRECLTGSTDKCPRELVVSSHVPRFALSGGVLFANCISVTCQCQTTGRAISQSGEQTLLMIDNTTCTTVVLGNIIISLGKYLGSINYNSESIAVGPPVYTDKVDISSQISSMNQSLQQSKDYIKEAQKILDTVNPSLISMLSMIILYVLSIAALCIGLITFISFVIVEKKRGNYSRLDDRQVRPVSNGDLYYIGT
UniProt Q9IH63, 27-109 partner limits assumed: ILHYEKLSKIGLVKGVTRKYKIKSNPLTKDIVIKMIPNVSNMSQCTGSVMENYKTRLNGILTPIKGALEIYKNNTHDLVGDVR
UniProt Q9IH63, 110-546 limits assumed: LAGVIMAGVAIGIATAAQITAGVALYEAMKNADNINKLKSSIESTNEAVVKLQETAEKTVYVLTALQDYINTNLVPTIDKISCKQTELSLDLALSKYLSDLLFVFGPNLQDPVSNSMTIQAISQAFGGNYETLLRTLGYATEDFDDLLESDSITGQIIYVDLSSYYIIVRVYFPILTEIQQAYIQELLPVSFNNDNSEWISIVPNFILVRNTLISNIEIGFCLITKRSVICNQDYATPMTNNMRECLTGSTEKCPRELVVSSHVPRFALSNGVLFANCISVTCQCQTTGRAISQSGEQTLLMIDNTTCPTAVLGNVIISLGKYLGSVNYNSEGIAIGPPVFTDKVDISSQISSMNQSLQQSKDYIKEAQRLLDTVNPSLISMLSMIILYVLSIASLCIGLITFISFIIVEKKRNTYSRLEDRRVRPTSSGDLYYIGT

Legend:
[1] = biological target: HeV F and HeV G glycoproteins (Hendra virus, UniProt O89342)
[2] = biological target: NiV F and NiV G glycoproteins (Nipah virus, UniProt Q9IH63)

In the case of `CC[C@H](C)[C@H](NC(=O)[C@H](Cc1ccc(O)cc1)NC(=O)[C@H](CC(=O)O)NC(=O)[C@H](CCCCN)NC(=O)[C@H](CO)NC(=O)[C@H](CCC(N)=O)NC(=O)[C@H](CCC(N)=O)NC(=O)[C@H](CC(C)C)NC(=O)[C@H](CO)NC(=O)[C@H](CCC(N)=O)NC(=O)[C@H](CC(N)=O)NC(=O)[C@H](CCSC)NC(=O)[C@H](CO)NC(=O)[C@H](CO)NC(=O)[C@@H](NC(=O)[C@H](CCC(N)=O)NC(=O)[C@H](CO)NC(=O)[C@H](CO)NC(=O)[C@@H](NC(=O)[C@H](CC(=O)O)NC(=O)[C@@H](NC(=O)[C@H](CCCCN)NC(C)=O)C(C)C)[C@@H](C)CC)[C@@H](C)CC)C(=O)N[C@@H](CCCCN)C(=O)N[C@@H](CCC(=O)O)C(=O)N[C@@H](C)C(=O)N[C@@H](CCC(N)=O)C(=O)N[C@@H](CCCNC(=N)N)C(=O)N[C@@H](CC(C)C)C(=O)N[C@@H](CC(C)C)C(=O)N[C@@H](CC(=O)O)C(=O)N[C@H](C(=O)N[C@H](C(=O)N[C@@H](CC(N)=O)C(=O)N1CCC[C@H]1C(=O)N[C@@H](CO)C(=O)N[C@@H](CC(C)C)C(N)=O)C(C)C)[C@@H](C)O`, the IC50 [1] is reported as 0.0176 µM and 0.0239 µM and 0.0275 µM and the IC50 [2] is reported as 0.0131 µM and 0.0163 µM and 0.0178 µM.
